Anti-infective test results gathered from many reports (values: NIAID ChemDB through PubChem).

Shared fields: tests in culture

Neighbouring rows are from separate reports. Percent inhibition refers to the dose given; in toxicity tests it is the harm to the cells. An empty or dashed field is not shown. ECn is the concentration giving n% inhibition of infection, replication or growth.

smiles	organism	strain	cell line	method	measure	dose	result
CCCCOc1ccc(-c2snc(SC)c2C#N)cc1	Encephalomyocarditis virus	Encephalomyocarditis virus	L929	plaque count	EC50		3 µM
C1CCCC(CNCCCNCC2CCCC(CNCCCNCC3CCCCCC3)C2)CC1	Encephalitozoon cuniculi				EC50		<100 µM
CSc1nsc(-c2ccc(OCc3ccccc3)cc2)c1C#N	Encephalomyocarditis virus		L929	plaque count	EC50		20 µM
CSc1nsc(C2CCCCC2)c1C#N	Encephalomyocarditis virus	Encephalomyocarditis virus	L929	plaque count	EC50		>50 µM
CCNCCCCNCCCCNCCCCNCCCCNC/C=C/CNCCCCNCCCCNCCCCNCCCCNCC	Encephalitozoon cuniculi				EC50		0.62 µM
CSc1nsc(-c2ccc(O)cc2)c1C#N	Encephalomyocarditis virus		L929	plaque count	EC50		>2 µM
CCOC(=O)c1ccc(OCCCCOc2ccc(-c3snc(SC)c3C#N)cc2)cc1	Encephalomyocarditis virus		HEP-2/L-929/VERO	plaque count	EC50		>2 µM
C(CNCC1CC1)CNCC1CCCC(CNCCCNCC2CC2)C1	Encephalitozoon cuniculi				EC50		<100 µM
CSc1nsc(-c2ccc(OC(C)(C)C)cc2)c1C#N	Encephalomyocarditis virus		L929	plaque count	EC50		3 µM
CCNCCCCNCCCCNCCCCNC/C=C/CNCCCCNCCCCNCCCCNCC	Encephalitozoon cuniculi				EC50		8.2 µM
CSc1nsc(-c2cccnc2)c1C#N	Encephalomyocarditis virus	Encephalomyocarditis virus	L929	plaque count	EC50		>20 µM
CCNCCCCNCCCCNCCCCNCCCCNC(=O)CCN	Encephalitozoon cuniculi				EC50		58.5 µM
CSc1nsc(-c2ccc(OCCCc3ccccc3)cc2)c1C#N	Encephalomyocarditis virus		HEP-2/L-929/VERO	plaque count	EC50		10 µM
COc1ccc(OCCCCCCn2ccnc2)c(Cl)c1	Encephalomyocarditis virus		HeLa	plaque count	EC50		>130.8 µM
CCOC(=O)c1ccc(OCCOc2ccc(-c3snc(SC)c3C#N)cc2)cc1	Encephalomyocarditis virus		HEP-2/L-929/VERO	plaque count	EC50		>2 µM
CCNC/C=C\CNC/C=C\CNC/C=C\CNC/C=C\CNCC	Encephalitozoon cuniculi				EC50		>1000 µM
C(CNCC1CCC1)CNCC1CCCC(CNCCCNCC2CCC2)C1	Encephalitozoon cuniculi				EC50		<250 µM
CCNCCCCNC/C=C\CNC/C=C\CNCCCCNCC	Encephalitozoon cuniculi				EC50		500 µM
CSc1nsc(-c2ccc(OCc3ccccc3)cc2)c1C#N	Encephalomyocarditis virus	Encephalomyocarditis virus	L929	plaque count	EC50		20 µM
O=C1CCC(N2C(=O)c3ccccc3C2=O)C(=O)N1	Encephalitozoon intestinalis		MRC-5		inhibition	1 µg/mL	4.4%
CSc1nsc(-c2ccccc2Cl)c1C#N	Encephalomyocarditis virus	Encephalomyocarditis virus	L929	plaque count	EC50		>5 µM
c1ccc(CNCCCNCC2CCCC(CNCCCNCc3ccccc3)C2)cc1	Encephalitozoon cuniculi				EC50		<100 µM

The last 3 rows once more:

smiles,organism,strain,cell line,method,measure,dose,result
O=C1CCC(N2C(=O)c3ccccc3C2=O)C(=O)N1,Encephalitozoon intestinalis,,MRC-5,,inhibition,1 µg/mL,4.4%
CSc1nsc(-c2ccccc2Cl)c1C#N,Encephalomyocarditis virus,Encephalomyocarditis virus,L929,plaque count,EC50,,>5 µM
c1ccc(CNCCCNCC2CCCC(CNCCCNCc3ccccc3)C2)cc1,Encephalitozoon cuniculi,,,,EC50,,<100 µM